Key:
[1] = molecular target: Human cytomegalovirus DNA polymerase (Human cytomegalovirus (strain AD169) (HHV-5) (Human herpesvirus 5), UniProt P08546); test: CMV polymerase assay (AlphaLISA); type: biochemical; conditions: read-out: CMV IC50; HCMV polymerase 0.2 nM, 30 min pre-incubation, 60 minute at 37° C.
Method: (§1) Human cytomegalovirus and varicella zoster virus DNA polymerases were expressed via baculovirus vector in SF21 cells and purified. Heterodimeric nucleic acid substrate used in the herpesvirus polymerase reactions were generated by annealing a 59-mer template to a 17-mer digoxigenin-labeled primer. Polymerase (HCMV final concentration of 0.2 nM; VZV final concentration of 0.4 nM) was combined with an inhibitor compound or DMSO in assay buffer (10 mM HEPES, pH 7.5, 25 mM KCl, 25 mM NaCl, 5 mM MgCl2, 5% glycerol, 0.67 mg/ml bovine serum albumin, and 1 mM tris(2-carboxyethyl)phosphine)), and this mixture was pre-incubated for 30 minutes at room temperature in 384-well microtiter plates. The polymerization reaction was initiated by the addition of template/primer substrate (final concentration: 1.6 nM), and dNTPs (final concentration: 24 nM dCTP, 24 nMdGTP, 16 nM dATP, 16 nM dTTP, and 0.8 nM biotin-dUTP). After a 60 minute incubation period at 37° C., the reactions were terminated using quench buffer (25 mM HEPES pH 7.5, 100 mM NaCl, 0.25% Tween-20, 12 mM EDTA, and 1 mg/ml bovine serum albumin). Incorporation of biotinylated UTP was detected with 2.5-5 μg/mL anti-DIG AlphaLISA acceptor beads and 5-10 μg/mL streptavidin AlphaLISA donor beads (PerkinElmer). […]

Protein sequences, listed by entry. Tags and fused reporters are not part of them.
UniProt P08546, whole entry: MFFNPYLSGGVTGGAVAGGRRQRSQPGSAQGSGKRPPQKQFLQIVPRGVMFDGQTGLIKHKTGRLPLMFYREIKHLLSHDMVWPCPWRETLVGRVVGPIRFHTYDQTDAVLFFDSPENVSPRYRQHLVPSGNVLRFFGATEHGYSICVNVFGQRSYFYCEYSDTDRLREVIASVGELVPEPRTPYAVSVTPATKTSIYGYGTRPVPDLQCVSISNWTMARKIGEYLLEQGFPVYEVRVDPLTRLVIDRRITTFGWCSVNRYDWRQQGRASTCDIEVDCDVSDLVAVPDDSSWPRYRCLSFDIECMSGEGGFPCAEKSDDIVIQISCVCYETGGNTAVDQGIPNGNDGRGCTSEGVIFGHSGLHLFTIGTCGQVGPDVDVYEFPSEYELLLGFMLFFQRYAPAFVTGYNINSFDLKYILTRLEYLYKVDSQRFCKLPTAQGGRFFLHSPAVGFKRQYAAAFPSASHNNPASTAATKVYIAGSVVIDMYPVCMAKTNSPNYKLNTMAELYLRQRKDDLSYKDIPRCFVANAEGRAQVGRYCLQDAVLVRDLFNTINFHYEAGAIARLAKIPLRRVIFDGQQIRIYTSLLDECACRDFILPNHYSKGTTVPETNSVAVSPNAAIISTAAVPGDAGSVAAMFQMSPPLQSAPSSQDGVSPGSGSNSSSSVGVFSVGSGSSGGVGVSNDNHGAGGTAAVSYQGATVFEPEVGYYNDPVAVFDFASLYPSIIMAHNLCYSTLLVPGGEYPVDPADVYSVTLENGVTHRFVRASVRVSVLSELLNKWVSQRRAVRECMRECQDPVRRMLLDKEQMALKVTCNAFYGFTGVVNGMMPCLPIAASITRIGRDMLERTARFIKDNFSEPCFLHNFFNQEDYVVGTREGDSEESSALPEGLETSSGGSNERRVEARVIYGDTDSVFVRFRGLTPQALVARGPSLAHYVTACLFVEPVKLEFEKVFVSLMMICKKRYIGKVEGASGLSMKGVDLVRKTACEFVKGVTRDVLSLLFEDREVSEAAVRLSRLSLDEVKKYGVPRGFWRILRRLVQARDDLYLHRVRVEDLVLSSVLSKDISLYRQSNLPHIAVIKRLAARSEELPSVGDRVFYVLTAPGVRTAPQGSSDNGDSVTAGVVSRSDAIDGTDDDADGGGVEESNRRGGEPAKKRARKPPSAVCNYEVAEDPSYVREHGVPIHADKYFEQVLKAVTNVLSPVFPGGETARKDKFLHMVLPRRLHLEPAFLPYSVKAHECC
UniProt P09252, whole entry: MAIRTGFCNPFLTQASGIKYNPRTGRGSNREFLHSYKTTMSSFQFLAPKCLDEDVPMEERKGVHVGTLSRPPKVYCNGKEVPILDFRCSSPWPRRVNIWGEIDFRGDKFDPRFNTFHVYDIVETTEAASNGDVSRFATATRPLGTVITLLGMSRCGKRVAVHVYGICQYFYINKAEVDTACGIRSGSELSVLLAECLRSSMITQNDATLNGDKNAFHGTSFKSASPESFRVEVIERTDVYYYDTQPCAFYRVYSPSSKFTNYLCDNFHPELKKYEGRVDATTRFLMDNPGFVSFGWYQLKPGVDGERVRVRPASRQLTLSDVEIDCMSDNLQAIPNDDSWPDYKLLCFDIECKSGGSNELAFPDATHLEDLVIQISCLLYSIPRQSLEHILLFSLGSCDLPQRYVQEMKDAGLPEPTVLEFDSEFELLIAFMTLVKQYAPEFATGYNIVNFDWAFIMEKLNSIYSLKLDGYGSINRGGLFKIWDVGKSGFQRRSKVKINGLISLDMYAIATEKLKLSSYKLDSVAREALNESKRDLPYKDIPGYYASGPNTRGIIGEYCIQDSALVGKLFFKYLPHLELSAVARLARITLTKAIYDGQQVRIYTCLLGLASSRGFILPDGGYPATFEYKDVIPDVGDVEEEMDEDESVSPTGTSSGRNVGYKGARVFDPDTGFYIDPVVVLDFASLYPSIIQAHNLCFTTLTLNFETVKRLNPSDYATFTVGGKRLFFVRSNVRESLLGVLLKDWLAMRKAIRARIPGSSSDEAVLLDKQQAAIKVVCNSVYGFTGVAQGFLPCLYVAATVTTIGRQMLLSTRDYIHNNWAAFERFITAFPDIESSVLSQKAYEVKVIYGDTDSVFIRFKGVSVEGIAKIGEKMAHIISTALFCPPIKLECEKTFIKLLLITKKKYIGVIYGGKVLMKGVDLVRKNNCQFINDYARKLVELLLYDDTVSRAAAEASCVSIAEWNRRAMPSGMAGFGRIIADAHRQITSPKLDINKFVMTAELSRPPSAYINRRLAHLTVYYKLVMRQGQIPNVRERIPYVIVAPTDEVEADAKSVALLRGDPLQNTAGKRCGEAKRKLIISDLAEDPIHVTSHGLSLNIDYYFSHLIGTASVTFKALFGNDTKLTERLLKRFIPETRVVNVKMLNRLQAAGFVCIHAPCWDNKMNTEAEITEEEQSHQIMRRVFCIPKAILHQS

[2] = molecular target: varicella zoster virus DNA polymerase (Varicella-zoster virus (strain Dumas) (HHV-3) (Human herpesvirus 3), UniProt P09252); test: VZV polymerase assay (AlphaLISA); type: biochemical; conditions: read-out: VZV IC50; VZV polymerase 0.4 nM, 30 min pre-incubation, 60 minute at 37° C.
Method: as §1

[3] = tested on: CMV; test: Viral qPCR assay, CMV; type: cell-based; conditions: read-out: CMV Cell EC50; infected cells, ~72 hrs, viral genome copies by qPCR normalized to PPIA
Method: (§2) MRC5 cells, Vero cells, and MeWo cells were obtained from ATCC, and were maintained at 37° C./5% CO2/90% relative humidity in Minimal Essential Medium with 10% fetal bovine serum, […] L-glutamine, 100 units/ml penicillin and 100 ug/ml streptomycin. Assay plates were prepared by dispensing compounds dissolved in DMSO into wells of 384 well collagen-coated plates using an ECHO acoustic dispenser. Each test compound was tested in a 10-point, serial 3-fold dilution. Controls included uninfected cells and infected cells treated only with DMSO. Assays were initiated by mixing selected cells, in suspension, with virus, and dispensing 50 μl/well infected cells to pre-plated compounds. […] Levels of the selected viral gene and of the cellular control, PPIA, were measured in separate 10 μl qPCR assays using TaqMan® Gene Expression Master Mix (Applied Biosystems), and an 7900HT Fast Real-Time PCR System with 384-Well Block Module. 7-point, serial 10-fold dilutions of a plasmid standard were run on each plate to generate a standard curve, and genome copies numbers were calculated by plotting experimental Ct onto linear regression of the standard curve. […] Calculated % effects were fit using a 4-parameter algorithm, and EC50 was reported.

[4] = tested on: HSV1; test: Viral qPCR assay, HSV1; type: cell-based; conditions: read-out: HSV1 Cell EC50; infected cells, ~72 hrs, viral genome copies by qPCR normalized to PPIA
Method: as §2

[5] = tested on: HSV2; test: Viral qPCR assay, HSV2; type: cell-based; conditions: read-out: HSV2 Cell EC50; infected cells, ~72 hrs, viral genome copies by qPCR normalized to PPIA
Method: as §2

## CCc1nc2cc(-c3cnn(C(F)F)c3)c(O[C@H]3CCN4C(=O)OC[C@@H]4C3)cc2c(=O)n1Cc1ccc(C#N)cc1
[1]
  IC50: 4 nM
[2]
  IC50: 1 nM
[3]
  EC50: 77 nM
[4]
  EC50: 53 nM
[5]
  EC50: 50 nM

From patent US12497405B2, “Bicyclic heterocycle compounds methods of use thereof for the treatment of herpes viruses” (Merck Sharp & Dohme LLC, priority 2019, dated 2025)
